Pooled drug test results. Numbers come from NIAID ChemDB, via PubChem.

Common to all: whole-cell or culture tests; species: Candida albicans

Neighbouring rows are from separate reports.

compound,method,strain or isolate,read-out,value
C=CC(C)(C)c1[nH]c2ccccc2c1C[C@@H]1NC(=O)[C@@H]2CCCN2C1=O,,SC5314,MIC,>100 µg/mL
Cn1c(=O)ccc2c3sc(N4CCN(c5cccc(Cl)c5Cl)CC4)nc3ccc21,,MTCC 183,MIC100,62.5 µg/mL
Cc1ccc(CC(Cc2ccc(-c3ccccc3)cc2)n2ccnc2)cc1,,,MFC,33 µM
Cn1c(=O)ccc2c3sc(N4CCN(C(c5ccccc5)c5ccc(Cl)cc5)CC4)nc3ccc21,,MTCC 183,MIC100,200 µg/mL
CCOC(=O)c1[nH]c2ccccc2c1C#N,broth dilution,,MIC,125 µg/mL
O=c1ccc2c(ccc3nc(N4CCN(c5ccccc5)CC4)sc32)o1,,MTCC 183,MIC100,500 µg/mL
OC[C@@H]1CO[C@](Cn2ccnc2)(c2ccc(-c3ccccc3)cc2)O1,,44 strains,MIC50,32 µg/mL
CC(/C=C/C=C(\C)C(O)C(C)C(=O)O[C@H]1C[C@@H](C)C=C2C=C[C@]3(C)O[C@@H](O)CC(=O)[C@]3(C)[C@H]21)=C\C=C\C(=O)O,,AC3401,MIC,0.78 µg/mL
C=CC(C)(C)c1[nH]c2ccccc2c1/C=C1\NC(=O)[C@@H]2CCCN2C1=O,,SC5314,MIC,>100 µg/mL
CCC(C)CC(C)CCCCCCCCC(=O)N[C@H]1C[C@@H](O)[C@H](NCCN)NC(=O)[C@@H]2[C@@H](O)CCN2C(=O)[C@H]([C@H](O)CCN)NC(=O)[C@H]([C@H](O)[C@@H](O)c2ccc(O)cc2)NC(=O)[C@@H]2C[C@@H](O)CN2C(=O)[C@H]([C@@H](C)O)NC1=O,,733 strains,MIC50,0.5 µg/mL
CC(=O)OC12CCC(C(=O)C1)C1C(=O)N(CCCN3CCN(c4ncccn4)CC3)C(=O)C12,broth dilution,DSM 1886,MIC,>100 µM
COc1ccc(-n2ncc3c4ccccc4n(C)c3c2=O)cc1,broth dilution,,MIC,250 µg/mL
CCN1CCN(c2nc3ccc4oc(=O)ccc4c3s2)CC1,,MTCC 183,MIC100,200 µg/mL
Nn1c(SCC(O)(Cn2cncn2)c2ccc(F)cc2F)nnc1-c1ccc(Cl)cc1,broth dilution,IRFC 37,MIC,>64 µg/mL
O=c1ccc2c(ccc3nc(N4CCC(Cc5ccccc5)CC4)sc32)o1,,MTCC 183,MIC100,200 µg/mL
c1ccc(CC(Cc2ccc(-c3ccccc3)cc2)n2ccnc2)cc1,,,MFC,>100 µM
CC(=O)OC12CCC(C(=O)C1)C1C(=O)N(CCCCN3CCN(c4ccc(F)cc4)CC3)C(=O)C12,broth dilution,DSM 1886,MIC,>100 µM
Nn1c(SCC(O)(Cn2cncn2)c2ccc(F)cc2F)nnc1-c1ccc(F)cc1,broth dilution,ATCC 18804,MIC,>64 µg/mL
Nc1n[nH]c(=O)c2[nH]c3ccccc3c12,broth dilution,,MIC,250 µg/mL
Cc1c(O)cccc1C(=O)N[C@@H](CSc1ccccc1)[C@H](O)CN1C[C@H]2CCCC[C@H]2C[C@H]1C(=O)NC(C)(C)C,,I54,MIC,64 µg/mL
CCCCCCCCCCCC[N+](C)(C)[O-],,S124,MIC,200 µg/mL
COc1ccc(-c2nnc(SCC(O)(Cn3cncn3)c3ccc(Cl)cc3Cl)n2N)cc1,broth dilution,ATCC 18804,MIC,>64 µg/mL
O=c1c2[nH]c3ccccc3c2cnn1-c1ccc(Br)cc1,broth dilution,,MIC,250 µg/mL
CSc1nc2ccccc2c(=O)n1/N=C1\C(=O)N(CN(C)C)c2ccc(Cl)cc21,,,MIC,156 µg/mL
O=c1[nH]c2ccc(C(F)(F)F)cc2nc1CBr,,ATCC 90029,MIC,15.6–62.5 µg/mL
Nn1c(SCC(O)(Cn2cncn2)c2ccc(Cl)cc2Cl)nnc1-c1ccccc1,broth dilution,IRFC 37,MIC,8 µg/mL
CC(=O)O[C@H]1CC[C@@]2(C)C(=CCC3C4CCC(C(=O)/C=C/c5ccc(F)cc5)[C@@]4(C)CCC32)C1,turbidity,MTCC 183,MIC,300 µg/mL
O=[N+]([O-])c1ccc(CC(c2cccs2)n2ccnc2)cc1,,,MIC,150 µM
CSc1nc2ccccc2c(=O)n1/N=C1\C(=O)N(CN2CCOCC2)c2ccccc21,,,MIC,78.12 µg/mL
O=c1ccc2c(ccc3nc(N4CCN(c5ccccc5Cl)CC4)sc32)o1,,MTCC 183,MIC100,200 µg/mL
CC(=O)OC12CCC(C(=O)C1)C1C(=O)N(CCCCN3CCN(c4ccccc4O)CC3)C(=O)C12,broth dilution,DSM 1886,MIC,>100 µM
Nn1c(SCC(O)(Cn2cncn2)c2ccc(F)cc2F)nnc1-c1ccncc1,broth dilution,IRFC 37,MIC,>64 µg/mL
COc1ccc(CC(Cc2ccc(-c3ccccc3)cc2)n2ccnc2)cc1,,,MFC,>100 µM
CSc1nc2ccccc2c(=O)n1/N=C1\C(=O)Nc2ccc(Cl)cc21,,,MIC,156 µg/mL
Cc1ccc(C(Cc2ccc(Cl)cc2Cl)n2ccnc2)s1,,,MIC,19 µM
CO[C@H]1[C@@H](OC(=O)OCc2ccccc2)[C@H](O)[C@H](OCC23C4C=C(C(C)C)C2(C(=O)O)C(C=O)(C4)[C@@H]2CC[C@@H](C)[C@H]23)O[C@@H]1C,,2005,MIC,2 µg/mL
OC(Cn1cncn1)(Cn1cncn1)c1ccc(F)cc1F,,IFO 1594,MIC,3.13 µg/mL
Cn1cccc1C(Cc1ccc(N)cc1)n1ccnc1,,,MIC,>300 µM
COC(=O)C1=C(C)NC(C)=C(C(=O)OC)C1c1ccccc1[N+](=O)[O-],,66 strains,MIC,374 µg/mL
O=c1ccc2c(ccc3nc(N4CCN(c5cccc(Cl)c5Cl)CC4)sc32)o1,,MTCC 183,MIC100,100 µg/mL
CS(=O)(=O)OCC1COC(Cn2ccnc2)(c2ccc(-c3ccccc3)cc2)O1,,44 strains,Mean MIC,94.1 µg/mL
CC(=O)O[C@H]1CC[C@@]2(C)C(=CCC3C4CCC(C(=O)/C=C/c5ccc(Cl)cc5)[C@@]4(C)CCC32)C1,turbidity,MTCC 183,MIC,500 µg/mL
Nn1c(SCC(O)(Cn2cncn2)c2ccc(Cl)cc2Cl)nnc1-c1ccc(F)cc1,broth dilution,IRFC 36,MIC,>64 µg/mL
CCn1c2ccccc2c2c(N)n[nH]c(=O)c21,broth dilution,,MIC,250 µg/mL
Clc1ccccc1CC(Cc1ccc(-c2ccccc2)cc1)n1ccnc1,,,MFC,19 µM
Nn1c(SCC(O)(Cn2cncn2)c2ccc(F)cc2F)nnc1-c1cccc(Br)c1,broth dilution,ATCC 18804,MIC,>64 µg/mL
CC(C)=CCC/C(C)=C/CCC(C)=CCC/C=C(\C)CCC=C(C)CCCN(C)C,,S124,MIC,50 µg/mL
CC(=O)O[C@H]1CC[C@@]2(C)C(=CCC3C4CCC(C(=O)/C=C/c5ccc(Cl)cc5Cl)[C@@]4(C)CCC32)C1,turbidity,MTCC 183,MIC,500 µg/mL
CC(=O)OC12CCC(C(=O)C1)C1C(=O)N(CCCCN3CCN(Cc4ccccc4)CC3)C(=O)C12,broth dilution,DSM 1886,MIC,>100 µM
CSc1nc2ccccc2c(=O)n1/N=C1\C(=O)Nc2ccccc21,,,MIC,156 µg/mL
O=c1[nH]c2cc(C(F)(F)F)ccc2nc1CBr,,ATCC 90029,MIC,15.6–62.5 µg/mL
CSc1nc2ccccc2c(=O)n1/N=C1\C(=O)N(CN2CCOCC2)c2ccc(Cl)cc21,,,MIC,39.06 µg/mL
CC[N+]([O-])(CC)CCCC(C)CCCC(C)CCCCC(C)CCCC(C)CCC[N+]([O-])(CC)CC,,S124,MIC,>200 µg/mL
CCOC(=O)c1cc2ccccc2[nH]1,broth dilution,,MIC,250 µg/mL
Fc1ccccc1CC(Cc1ccc(-c2ccccc2)cc1)n1ccnc1,,,MIC,≥5.5 µM
COc1c(O)c2c(=O)cc(OC)c3c4c(OC)cc(=O)c5c(O)c(OC)c6c(c(c1CC(C)(O)C6C(C)=O)c23)c54,,,MFC,1.41 µg/mL
CCC(C)n1ncn(-c2ccc(N3CCN(c4ccc(OC[C@H]5CO[C@](Cn6cncn6)(c6ccc(Cl)cc6Cl)O5)cc4)CC3)cc2)c1=O,,3 strains,MIC,0.03–0.06 µg/mL
Cn1cccc1C(Cc1ccc([N+](=O)[O-])cc1)n1ccnc1,,,MIC,>300 µM
C[C@H]1[C@H](O)[C@@H](C)/C=C/C=C/C=C/C=C/C=C/C=C/C=C/[C@H](O[C@@H]2O[C@H](C)[C@@H](O)[C@H](N)[C@@H]2O)C[C@@H]2O[C@](O)(C[C@@H](O)C[C@@H](O)CC[C@H](O)[C@@H](O)C[C@@H](O)CC(=O)O[C@H]1C)C[C@H](O)[C@H]2C(=O)O,,5 isolates fluconazole-susceptible,Geometric mean MIC,0.5 µg/mL
CCN(CC)CCCC(C)CCCC(C)CCCCC(C)CCCC(C)CCCN(CC)CC,,S9,MIC,50 µg/mL
CCOC(=O)c1c(C#N)c2ccccc2n1C,broth dilution,,MIC,250 µg/mL
O=c1[nH]c2cc(F)c(F)cc2nc1CBr,,ATCC 90029,MIC,15.6–62.5 µg/mL
CCN(CC)CCCC(C)=CCC/C(C)=C/CCC=C(C)CC/C=C(\C)CCC=C(C)C,,S124,MIC,100 µg/mL
Cc1ccc(-c2nnc(SCC(O)(Cn3cncn3)c3ccc(F)cc3F)n2N)cc1,broth dilution,IRFC 192,MIC,>64 µg/mL
CC(=O)N1CCN(c2ccc(OC[C@H]3CO[C@](Cn4ccnc4)(c4ccc(-c5ccccc5)cc4)O3)cc2)CC1,,44 strains,MIC90,>256 µg/mL
COC(=O)C1OC2(CCCC(OC(C)=O)C(C)C/C=C/c3ccccc3)OC(C(=O)O)(C(OC(=O)CCCCCC/C=C/c3ccccc3)C2O)C1(O)C(=O)O,,SC,MIC,>50 µg/mL
CCC1/C=C/C=C/CCC(O)C(C)C(O)CC(OC)CC(O)C(C)C(O)C(CC)/C=C/C(=O)OC2CC3(CCC(C)C(CC(O)C(C)O)O3)OC(CC1)C2CCCO,,,MIC,12.5 µg/mL
O=c1ccc2c(ccc3nc(N4CCN(c5ccccc5F)CC4)sc32)o1,,MTCC 183,MIC100,50 µg/mL
CSc1nc2ccccc2c(=O)n1/N=C1\C(=O)Nc2ccc(Br)cc21,,,MIC,156 µg/mL
O=[N+]([O-])c1ccc(CC(c2ccc(Cl)s2)n2ccnc2)cc1,,,MIC,75 µM
CCOC(=O)c1[nH]c2ccccc2c1C=O,broth dilution,,MIC,250 µg/mL

For reference, 9 entries again:

compound	method	strain or isolate	read-out	value
C=CC(C)(C)c1[nH]c2ccccc2c1C[C@@H]1NC(=O)[C@@H]2CCCN2C1=O		SC5314	MIC	>100 µg/mL
O=[N+]([O-])c1ccc(CC(c2cccs2)n2ccnc2)cc1			MIC	150 µM
CCN1CCN(c2nc3ccc4oc(=O)ccc4c3s2)CC1		MTCC 183	MIC100	200 µg/mL
CC[N+]([O-])(CC)CCCC(C)CCCC(C)CCCCC(C)CCCC(C)CCC[N+]([O-])(CC)CC		S124	MIC	>200 µg/mL
O=c1ccc2c(ccc3nc(N4CCN(c5cccc(Cl)c5Cl)CC4)sc32)o1		MTCC 183	MIC100	100 µg/mL
CCC(C)CC(C)CCCCCCCCC(=O)N[C@H]1C[C@@H](O)[C@H](NCCN)NC(=O)[C@@H]2[C@@H](O)CCN2C(=O)[C@H]([C@H](O)CCN)NC(=O)[C@H]([C@H](O)[C@@H](O)c2ccc(O)cc2)NC(=O)[C@@H]2C[C@@H](O)CN2C(=O)[C@H]([C@@H](C)O)NC1=O		733 strains	MIC50	0.5 µg/mL
CCC(C)n1ncn(-c2ccc(N3CCN(c4ccc(OC[C@H]5CO[C@](Cn6cncn6)(c6ccc(Cl)cc6Cl)O5)cc4)CC3)cc2)c1=O		3 strains	MIC	0.03–0.06 µg/mL
CC(C)=CCC/C(C)=C/CCC(C)=CCC/C=C(\C)CCC=C(C)CCCN(C)C		S124	MIC	50 µg/mL
CCC1/C=C/C=C/CCC(O)C(C)C(O)CC(OC)CC(O)C(C)C(O)C(CC)/C=C/C(=O)OC2CC3(CCC(C)C(CC(O)C(C)O)O3)OC(CC1)C2CCCO			MIC	12.5 µg/mL

a–b is a range or a potency band. MIC50, MIC90 and the like: level of inhibition, or share of isolates inhibited. An empty or dashed field is not shown.